In the supplement of paper PMC9931576:
Human monoclonal antibodies against the spike receptor-binding domain (heavy:light variable regions). IC50 against pseudoviruses bearing the spike of naturally observed variants; lower = stronger; >10 µg/ml means not reached at the top dose. No active / inactive call. The stated detection limit is 0.0005 µg/ml; values near or below 0.001 µg/ml lie at the floor of the assay.

B1: BD55-6448 (protein)
chain 1: EVQLLESGGGLVQPGGSLRLSCAASGFPFDNYAMTWVRQAPGKGLEWVSSISGSGDVTYFIDSLKGRFTISRDNSENTLYLQMTGLRAEDTAVYYCAKDHLRRVYYYDTSGFDYWGHGTLVTVSS
chain 2: QSVLTQPPSVSGAPGQRVTISCTGSSSNIGSYYDVHWYQHLPGTAPKLLIFGTVNRPSGVPDRFSGSKSGTSASLTITGLQAEDEADYYCQSFDSSLTLLFGGGTRLTVL
B2: BD55-1245 (protein)
chain 1: QVQLVQSGSEFKKPGASVKVACKASGYTFSDYAINWVRQTPGQGLEWLGWINTNTGNPTYAQGFTGHFDFSLDTSLSTAYLQISSLKAEDAAVYYCARVWGAGIRYNYYGLDVWGQGTTVTVSS
chain 2: IVMTQSPLSLPVTLGEPASISCRSSQNLYHRSGYHYLDWYMQKPGQSPQLLIYLGSNRASGVPDRFSGSASGTDFTLTISRVEAEDVGVYYCMQALQTPPEYTFGQGTKLEIK
B3: BD55-6452 (protein)
chain 1: VQLVQSGADVKEPGASVKVSCKTSGYAFSTYDIVWVRQVTGQRLEWMGWMNPKSGDTGYAHKFQGRVTMTRDTSTSTAYLELSSLTSEDTAIYYCAREEDGVVRGFRRFDPWGQGTLVTVSS
chain 2: DIQLTQSPSSLSASVGDRVTITCRASQNINNNLNWYQQKPGNAPKLLIYTTSSLQSGVPSRFSGGGSGTDFTLTINSLQPGDFATYYCQQSYSTSYSFGQGTRLEIK
B4: BD55-6465 (protein)
chain 1: QVQLVQSGAEVKKPGASVKVSCKASGYTFINYDINWVRQATGQGLEWMGWMNPNSGSTGYAHNFQGRVTMTRNTSIATAYMELSSLRSEDTAVYYCARGLPYSHSSGYGASDHWGQGALVTVSS
chain 2: DLQMTQSPSSLSASVGARVTLTCRASQSISTYLNWYQQKPGTAPKLLIYGASSLQSGVPSRFSGSGSGTDFTLTISSLQPEDFATYYCQQSYSTPYSFGQGTKLEIK
B5: BD55-1244 (protein)
chain 1: QVQLVESGGGVVQPGKSLRLSCTASGFTFSTYAMHWVRQVPGKGLEWVAVILYDGSLKLYSDSVKGRFTISRDNSKNTLFLEMNNLRAEDTAVYYCARDQGEMTTHFDLWGLGTLVTVSS
chain 2: DIQMTQSPSSLPASVGDRITITCRASQSIAKFLNWYQQKPGKAPQLLIYDASTLQSGVPSRFSGSGSGTDFTLTVSSLQPEDFATYYCQQSYNTPPWTFGQGTRVEIK
B6: BD55-6459 (protein)
chain 1: EVQLVESGGGLVKPGGTLTLACAASGFSFNTNGMNWVRQAPGKGLEWVASISSSRSFIFYADSVKGRFIISRDNSKNSLYLHMSSLRVEDTAVYYCTREWDHYDTRLDWGQGTLVTVSS
chain 2: QSVLTQPPSVSGTPGQRVTISCTGSSSNIGAGFAVHWYQQLPGTAPQLLFSHTDRPSGVPDRISGSRSGTSASLAITGLQAEDEADYYCQSFDSSLSVVVFGGGTKLTVL

Tests used:
Experiment in all cases: pseudovirus neutralization IC50; higher = weaker neutralization
[1] = target: SARS-CoV-2 Omicron BA.1 spike pseudovirus
Protocol: (§1)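 Single-round VSV luciferase pseudovirus mixed with antibody dilutions for 1 h and put on Huh-7 cells for about a day; IC50 from the dose curve.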

[2] = target: SARS-CoV-2 Omicron BA.2 spike pseudovirus
Protocol: as §1

[3] = target: SARS-CoV-2 Omicron BA.2.75 spike pseudovirus
Protocol: as §1

[4] = target: SARS-CoV-2 Omicron BA.5 spike pseudovirus
Protocol: as §1

[5] = target: SARS-CoV-2 Omicron BQ.1.1 spike pseudovirus
Protocol: as §1

[6] = target: SARS-CoV-2 Omicron XBB spike pseudovirus
Protocol: as §1

[7] = target: SARS-CoV-2 early D614G spike pseudovirus
Protocol: as §1

Row | Binder | pseudovirus neutralization IC50 [1] [µg/mL] | pseudovirus neutralization IC50 [2] [µg/mL] | pseudovirus neutralization IC50 [3] [µg/mL] | pseudovirus neutralization IC50 [4] [µg/mL] | pseudovirus neutralization IC50 [5] [µg/mL] | pseudovirus neutralization IC50 [6] [µg/mL] | pseudovirus neutralization IC50 [7] [µg/mL]
1 | B1 | > 10 | > 10 | > 10 | > 10 | > 10 | > 10 | > 10
2 | B2 | > 10 | > 10 | > 10 | > 10 | > 10 | > 10 | 0.298
3 | B3 | > 10 | > 10 | > 10 | > 10 | > 10 | > 10 | > 10
4 | B4 | > 10 | > 10 | > 10 | > 10 | > 10 | > 10 | > 10
5 | B5 | > 10 | > 10 | > 10 | > 10 | > 10 | > 10 | 0.991
6 | B6 | > 10 | > 10 | > 10 | > 10 | > 10 | > 10 | 0.62
